Pooled drug test results. Numbers come from NIAID ChemDB, via PubChem.

All rows: growth or infection tests; agent: Cryptococcus neoformans

Rows are shuffled and stem from different studies. Two numbers with a dash give a range or band. A number after MIC or MFC names an inhibition level or a share of isolates.

{"smiles": "C[C@H]1[C@H](O)[C@@H](C)/C=C/C=C/C=C/C=C/C=C/C=C/C=C/[C@H](O[C@@H]2O[C@H](C)[C@@H](O)[C@H](N)[C@@H]2O)C[C@@H]2O[C@](O)(C[C@@H](O)C[C@@H](O)CC[C@H](O)[C@@H](O)C[C@@H](O)CC(=O)O[C@H]1C)C[C@H](O)[C@H]2C(=O)O", "endpoint": "MIC90", "strain or isolate": "5 isolates", "value": "0.5 µg/mL"}
{"smiles": "C[C@H]1[C@H](O)[C@@H](C)/C=C/C=C/C=C/C=C/C=C/C=C/C=C/[C@H](O[C@@H]2O[C@H](C)[C@@H](O)[C@H](N)[C@@H]2O)C[C@@H]2O[C@](O)(C[C@@H](O)C[C@@H](O)CC[C@H](O)[C@@H](O)C[C@@H](O)CC(=O)O[C@H]1C)C[C@H](O)[C@H]2C(=O)O", "endpoint": "MIC50", "strain or isolate": "ATCC 36556", "value": "0.49 µg/mL"}
{"smiles": "CCCCCCCCCCCCC#CCCCCC(=O)O", "endpoint": "MIC", "strain or isolate": "ATCC66031", "value": "<4.3 µM"}
{"smiles": "CCCn1nc(C)c(N=O)c1-c1cc(C)on1", "endpoint": "MFC", "value": "0.8 µM"}
{"smiles": "C[C@H]1[C@H](O)[C@@H](C)/C=C/C=C/C=C/C=C/C=C/C=C/C=C/[C@H](O[C@@H]2O[C@H](C)[C@@H](O)[C@H](N)[C@@H]2O)C[C@@H]2O[C@](O)(C[C@@H](O)C[C@@H](O)CC[C@H](O)[C@@H](O)C[C@@H](O)CC(=O)O[C@H]1C)C[C@H](O)[C@H]2C(=O)O", "endpoint": "MIC100", "strain or isolate": "ATCC 32264", "read by": "broth dilution / absorbance", "value": "0.25 µg/mL"}
{"smiles": "CCOC(=O)c1cc(C)nc2sc3c(Cl)nnnc3c12", "endpoint": "MIC", "value": "100 µg/mL"}
{"smiles": "COc1ccc(-c2c3c(N)c4c(nc3nc3c2c(C)nn3-c2ccccc2)CCCCC4)cc1", "endpoint": "MIC50", "strain or isolate": "ATCC 32264", "read by": "broth dilution / absorbance", "value": "250 µg/mL"}
{"smiles": "CCS(=O)(=O)C(F)(F)C(O)(Cn1cncn1)c1ccc(F)cc1F", "endpoint": "MIC90", "strain or isolate": "26 strains", "value": "2 µg/mL"}
{"smiles": "Cn1c([N+](=O)[O-])cnc1N", "endpoint": "MIC", "value": ">200 µg/mL"}
{"smiles": "C[C@H]1N(C(=O)c2ccc(C(F)(F)F)cc2)C[C@@H](O)O[C@@]1(Cn1cncn1)c1ccc(F)cc1F", "endpoint": "MIC", "strain or isolate": "Isolate 4", "value": "8 µg/mL"}
{"smiles": "COC(=O)[C@H]1[C@@H]2C[C@@H](O[C@@H]3O[C@H](C)[C@@H](O)[C@H](N)[C@@H]3O)/C=C/C=C/C=C/C=C/C=C/C=C/C=C/[C@H](C)[C@@H](O)[C@H](C)[C@H](C)OC(=O)C[C@H](O)C[C@H](O)[C@@H](O)CC[C@H](O)C[C@H](O)C[C@](O)(C[C@@H]1O)O2", "endpoint": "MIC", "value": "0.8 µM"}
{"smiles": "CCCCCOc1ccc(-c2cc(-c3ccc(C(=O)N[C@H]4C[C@@H](O)[C@@H](O)NC(=O)[C@@H]5[C@@H](O)[C@@H](C)CN5C(=O)[C@H]([C@H](O)CC(N)=O)NC(=O)[C@H]([C@H](O)[C@@H](O)c5ccc(O)c(OS(=O)(=O)O)c5)NC(=O)[C@@H]5C[C@@H](O)CN5C(=O)[C@H]([C@@H](C)O)NC4=O)cc3)no2)cc1", "endpoint": "MIC", "strain or isolate": "3 strains", "value": ">128 µg/mL"}
{"smiles": "Cc1ccc2c(n1)sc1c(Cl)nnnc12", "endpoint": "MIC", "value": "25–100 µg/mL"}
{"smiles": "OC(c1cc(-c2ccc(Cl)cc2)nc2c1ccc1ccccc12)C1CCCCN1", "endpoint": "MIC", "strain or isolate": "ATCC 90013", "value": "0.8 µg/mL"}
{"smiles": "COc1cc(O)c2c(c1)C(=O)c1c(cc3c(c1O)-c1c(cc(C)c(C(=O)NC(CO)C(=O)O)c1O)[C@H](OC1OC(C)C(N(C)C)C(OC4OCC(O)C(O)C4O)C1O)[C@H]3O)C2=O", "endpoint": "MIC", "strain or isolate": "1 isolates", "value": "1.6 µg/mL"}
{"smiles": "Cc1cc(-c2cc(C)on2)n(C)n1", "endpoint": "MFC", "value": ">200 µM"}
{"smiles": "CCCCCCC#CCCCCCCCC(=O)O", "endpoint": "MIC", "strain or isolate": "ATCC66031", "value": "10.8 µM"}
{"smiles": "OC(c1cc(-c2ccc(-c3ccccc3)cc2)nc2ccccc12)C1CCCCN1", "endpoint": "MIC", "strain or isolate": "ATCC90112", "value": "1.5 µg/mL"}
{"smiles": "Cc1cc(-c2c(N=O)c(C)nn2C)no1", "endpoint": "MIC", "value": "0.8 µM"}
{"smiles": "CCCCCCCCCCCCCC(=O)O", "endpoint": "MIC", "strain or isolate": "ATCC66031", "value": "1900 µM"}
{"smiles": "Cn1c([N+](=O)[O-])cnc1S(C)(=O)=O", "endpoint": "MIC", "value": ">200 µg/mL"}
{"smiles": "Cn1nc(Cc2ccc(Cl)cc2)c2ccccc2c1=O", "endpoint": "MFC", "strain or isolate": "Clinical isolate (IM 000319)", "read by": "broth dilution", "value": "250 µg/mL"}
{"smiles": "C[C@H]1[C@H](O)[C@@H](C)/C=C/C=C/C=C/C=C/C=C/C=C/C=C/[C@H](O[C@@H]2O[C@H](C)[C@@H](O)[C@H](N)[C@@H]2O)C[C@@H]2O[C@](O)(C[C@@H](O)C[C@@H](O)CC[C@H](O)[C@@H](O)C[C@@H](O)CC(=O)O[C@H]1C)C[C@H](O)[C@H]2C(=O)O", "endpoint": "MIC", "strain or isolate": "3 strains", "value": "0.5–1 µg/mL"}
{"smiles": "CCC(C)CC(C)CCCCCCCCC(=O)N[C@H]1C[C@@H](O)[C@@H](O)NC(=O)[C@@H]2[C@@H](O)CCN2C(=O)[C@H]([C@H](O)CC(N)=O)NC(=O)[C@H]([C@H](O)[C@@H](O)c2ccc(O)cc2)NC(=O)[C@@H]2C[C@@H](O)CN2C(=O)[C@H]([C@@H](C)O)NC1=O", "endpoint": "MIC", "strain or isolate": "20 isolates", "value": ">8 µg/mL"}
{"smiles": "COc1cc2nccc3c4ccccc4n(c1=O)c23", "endpoint": "MIC", "value": "45.4 µM"}
{"smiles": "Cn1ccnc1S(C)(=O)=O", "endpoint": "MIC", "value": ">200 µg/mL"}
{"smiles": "Cc1ccc(-c2c3c(N)c4c(nc3nc3c2c(C)nn3-c2ccccc2)CCCC4)cc1", "endpoint": "MIC50", "strain or isolate": "ATCC 32264", "read by": "broth dilution / absorbance", "value": "125 µg/mL"}
{"smiles": "C[C@H]1[C@H](O)[C@@H](C)/C=C/C=C/C=C/C=C/C=C/C=C/C=C/[C@H](O[C@@H]2O[C@H](C)[C@@H](O)[C@H](N)[C@@H]2O)C[C@@H]2O[C@](O)(C[C@@H](O)C[C@@H](O)CC[C@H](O)[C@@H](O)C[C@@H](O)CC(=O)O[C@H]1C)C[C@H](O)[C@H]2C(=O)O", "endpoint": "MIC", "strain or isolate": "Isolate 89-98", "value": "≤0.14 µg/mL"}
{"smiles": "Cc1cc(-c2cc(C)n(C)n2)no1", "endpoint": "MIC", "value": ">200 µM"}
{"smiles": "CSc1nccn1C", "endpoint": "MIC", "value": ">200 µg/mL"}
{"smiles": "Cc1onc(-c2nn(C)c(C)c2[N+](=O)[O-])c1[N+](=O)[O-]", "endpoint": "MIC", "value": ">200 µM"}
{"smiles": "COc1ccc(-c2c3c(N)c4c(nc3nc3c2c(C)nn3-c2ccccc2)CCC4)cc1", "endpoint": "MIC50", "strain or isolate": "ATCC 32264", "read by": "broth dilution / absorbance", "value": "31.2 µg/mL"}
{"smiles": "C[C@@H](n1cnc2cc(Cl)ccc2c1=O)[C@](O)(Cn1cncn1)c1ccc(F)cc1F", "endpoint": "MFC", "strain or isolate": "Isolate 163.99", "value": ">20 µg/mL"}
{"smiles": "CC(C)=CCC1=CC(=O)C(=O)C(C)=C1O", "endpoint": "MIC", "strain or isolate": "ATCC90112", "value": "75 µg/mL"}
{"smiles": "CCCCCCCCCOC[C@H](OC)C(=O)O", "endpoint": "MIC", "strain or isolate": "ATCC66031", "value": "180 µM"}